Compound potency records, mixed from different reports. Data source: NIAID ChemDB in PubChem.

Shared fields: growth or infection tests; organism: HIV-1; cells: Macrophage; endpoint: EC50

Two numbers with a dash give a range or band. Conditions beyond the fields shown may differ between rows. An empty or dashed field is not shown. ECn is the concentration giving n% inhibition of infection, replication or growth.

structure	strain	read by	setting	result
O=C(O)c1cc(O)cc(O)c1N=Nc1ccc(/C=C/c2ccc(N=Nc3c(O)cc(O)cc3C(=O)O)cc2S(=O)(=O)O)c(S(=O)(=O)O)c1	IIIB	p24	-	0.3 µg/mL
N#CC[C@H](C1CCCC1)n1cc(-c2ncnc3[nH]ccc23)cn1	BaL	p24 / ELISA	inside macrophages	0.3 µM
CC(C)=CCN1Cc2cccc3[nH]c(=S)n(c23)C[C@@H]1C	IIIB	cytopathic effect / XTT	-	0.1 µM
Cc1cn([C@H]2C[C@H](N=[N+]=[N-])[C@@H](CO)O2)c(=O)[nH]c1=O	JR-FL	p24	-	0.164 µg/mL
Cc1cn([C@H]2C[C@H](N=[N+]=[N-])[C@@H](CO)O2)c(=O)nc1N	DV	p24	-	0.006 µM
Cc1cn([C@H]2C[C@H](N=[N+]=[N-])[C@@H](CO)O2)c(=O)[nH]c1=O	Clinical isolate	p24	-	0.005 µM
Cc1ccnc2c1NC(=O)c1cccnc1N2C1CC1	Ba-L-85	p24	-	0.044 µM
Nc1nc(=O)n([C@@H]2CC[C@H](CO)O2)cc1F	BaL	RT activity	-	0.00057 µM
CC(C)(C)NC(=O)[C@@H]1C[C@@H]2CCCC[C@@H]2CN1C[C@@H](O)[C@H](Cc1ccccc1)NC(=O)[C@H](CC(N)=O)NC(=O)c1ccc2ccccc2n1	BaL	RT activity	-	0.017 µM
Cc1cn([C@H]2C[C@H](N=[N+]=[N-])[C@@H](CO)O2)c(=O)[nH]c1=O	JR-FL	-	-	<1 µM
CN=C1CN=C(c2ccc[nH]2)c2cc(Cl)ccc2N1	Ba-L-85	p24	-	0.7–2 µM
CC(C)CCC[C@@H](C)[C@H]1CC[C@H]2[C@@H]3CC[C@H]4C[C@@H](CCC=C(c5cc(Cl)c(O)c(C(=O)O)c5)c5cc(Cl)c(O)c(C(=O)O)c5)CC[C@]4(C)[C@H]3CC[C@]12C	BaL	p24 / RT activity	-	19.7 µM
Cc1cn([C@H]2C[C@H](N=[N+]=[N-])[C@@H](CO)O2)c(=O)[nH]c1=O	BaL	cytopathic effect / XTT	-	0.4 µM
NC(=O)c1[nH]c2ccc(Cl)cc2c1S(=O)(=O)c1ccccc1	IIIB Ba-L	p24	-	2 µM
O=S1(c2ccccc2)=NC(=S)Nc2ccccc21	RF	p24	-	0.07 µM
O=C(NCc1ccc(F)cc1)c1nc(N2CCCCS2(=O)=O)c2cccnc2c1O	BaL	p24	-	<0.035 µM
Cc1cn([C@H]2C[C@H](N=[N+]=[N-])[C@@H](CO)O2)c(=O)nc1N	DV	RT activity	-	0.006 µM
CC[C@]1(c2ccccc2)Oc2cccnc2-n2cccc2C1=O	-	p24	-	0.57 µM
Cc1ccnc2c1NC(=O)c1cccnc1N2C1CC1	IIIB	cytopathic effect / XTT	-	0.39 µM
Cc1cn([C@H]2C[C@H](N=[N+]=[N-])[C@@H](CO)O2)c(=O)[nH]c1=O	-	p24 / ELISA	-	0.3 µM
Nc1ccn([C@@H]2CC[C@H](CO)O2)c(=O)n1	BaL	-	-	0.003 µM
Cc1cn([C@H]2C[C@H](N=[N+]=[N-])[C@@H](CO)O2)c(=O)[nH]c1=O	ADA	p24 / RT activity	-	0.002 µM
CC1=C(C(=O)Nc2ccc(Cl)c(C(=O)OC(C)C)c2)SCCO1	IIIB	cytopathic effect / XTT	-	0.26 µM
N#CC[C@H](C1CCCC1)n1cc(-c2ncnc3[nH]ccc23)cn1	BaL	p24 / ELISA	-	0.3 µM
CC[C@H](C)[C@@H](C(=O)O)n1sc2ccccc2c1=O	BaL	p24 / RT activity	-	6.5 µM
Fc1cccc(F)c1C1SCc2nc3ccccc3n21	BaL	p24	-	0.69 µM

A second listing of 4 rows from above:

structure	strain	read by	setting	result
CN=C1CN=C(c2ccc[nH]2)c2cc(Cl)ccc2N1	Ba-L-85	p24	-	0.7–2 µM
Nc1ccn([C@@H]2CC[C@H](CO)O2)c(=O)n1	BaL	-	-	0.003 µM
CC(C)(C)NC(=O)[C@@H]1C[C@@H]2CCCC[C@@H]2CN1C[C@@H](O)[C@H](Cc1ccccc1)NC(=O)[C@H](CC(N)=O)NC(=O)c1ccc2ccccc2n1	BaL	RT activity	-	0.017 µM
Cc1cn([C@H]2C[C@H](N=[N+]=[N-])[C@@H](CO)O2)c(=O)nc1N	DV	p24	-	0.006 µM